Laboratory results: PubChem BioAssay AID504761 (Drosophila RNAi Screening Center, 2011)
In all, the deposit lists about 22,000 reagents; below is a random part of those that have a named target and a result. Over the whole deposit, 116 (0.52%) got an active call. 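Calls depend on retest data that are not deposited; infection was ranked per plate without normalising between plates; the unit of the infection score is not given.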 The raw values are shown without normalisation. Entries without a mark were called inactive. The numbers tell different reagents against one gene apart. A plus sign joins genes that one reagent is predicted to hit. Not given: the amount of reagent, the time to read-out.

Aim: 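Genome-wide fly cell screen for genes dengue virus requires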 (primary screen)
Cells: D.Mel-2 cells from Drosophila
Knock-down reagent: long dsRNA against Drosophila genes
Treatment: infection with dengue virus type 2; dose and infection time not stated
Detection: 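Per well on two replicate plates, imaging gave the percent of cells positive for viral envelope protein, ranked by infection, and a nuclear count of cells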
Direction: infection score: higher = more virus-infected cells; cell count: higher = more cells in the well
Call rule: 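Very low infection ranking in both replicate wells (chance probability at most 0.065), then a retest showing infection dropped 1.5-fold or more at p below 0.05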
Calls: active = confirmed: knock-down lowers infection; inactive = not picked or not confirmed

| gene knocked down | dsRNA no. | infection score, replicate 1 | infection score, replicate 2 | cell count, replicate 1 | cell count, replicate 2 |
| --- | --- | --- | --- | --- | --- |
| CG6244 | 1 | 0.75 | 1.65 | 6303 | 5685 |
| CG4646 | 1 | 14.2 | 7.87 | 5499 | 6833 |
| Josd | 1 | 3.89 | 2.96 | 6419 | 6853 |
| CG13721 | 1 | 3.17 | 1.97 | 5898 | 6035 |
| CG32554 | 1 | 5.58 | 6.36 | 6507 | 7076 |
| CG32554 | 2 | 26 | 5.45 | 5363 | 1359 |
| mod(mdg4) | 1 | 2.64 | 0.61 | 6140 | 5911 |
| mod(mdg4) | 2 | 3.62 | 1.17 | 6383 | 6093 |
| mod(mdg4) | 3 | 1.54 | 5.69 | 5919 | 5712 |
| CG30491 | 1 | 6.61 | 11.3 | 6746 | 6928 |
| CG30491 | 2 | 4.85 | 2.07 | 6495 | 6482 |
| Cpr65Aw | 1 | 0.87 | 0.92 | 6063 | 5769 |
| Vha100-3 | 1 | 0.7 | 0.5 | 6309 | 5770 |
| CG17121 | 1 | 5.63 | 2.35 | 6234 | 6429 |
| Taf7 | 1 | 29.7 | 23.5 | 5228 | 6032 |
| Taf7 | 2 | 3.18 | 14.3 | 6265 | 6041 |
| Slbp | 1 | 3.12 | 1.6 | 6385 | 6607 |
| Proc | 1 | 0.62 | 1.61 | 6252 | 6016 |
| Crtp | 1 | 8.44 | 3.01 | 6383 | 6905 |
| Crtp | 2 | 5.7 | 3.09 | 6314 | 6671 |
| dati | 1 | 2.02 | 5.74 | 6076 | 6689 |
| dati | 2 | 11.2 | 13.6 | 3565 | 5825 |
| dati | 3 | 17.7 | 18.5 | 6145 | 5261 |
| Vm34Ca | 1 | 2.14 | 2.04 | 6630 | 6609 |
| Vm34Ca | 2 | 2.26 | 6.37 | 5713 | 5933 |
| mRpL19 | 1 | 3.77 | 3.5 | 6158 | 6286 |
| mRpL19 | 2 | 2.29 | 2.39 | 5626 | 6273 |
| mRpL19 | 3 | 8.1 | 3.39 | 3629 | 5193 |
| JTBR | 1 | 1.44 | 3.52 | 6337 | 5970 |
| NimA | 1 | 2.31 | 1.79 | 5800 | 4924 |
| NimA | 2 | 4.28 | 5.69 | 6139 | 6031 |
| NimA | 3 | 6.78 | 7.45 | 5133 | 3961 |
| NimA | 4 | 13 | – | 1859 | 403 |
| firl | 1 | 5.44 | 3.83 | 6674 | 6653 |
| CG7322 | 1 | 2.94 | 2.04 | 5955 | 6039 |
| CG7322 | 2 | 5.35 | 3.33 | 6411 | 6938 |
| chk | 1 | 7.18 | 10.5 | 6618 | 6702 |
| TpnC25D | 1 | 2.84 | 2 | 6540 | 6839 |
| TpnC25D | 2 | 2.45 | 2 | 6652 | 6551 |
| gish | 1 | 11.6 | 6.5 | 5285 | 5663 |
| tin | 1 | 11.3 | 2.08 | 4370 | 6215 |
| tin | 2 | 1.91 | 7.06 | 7018 | 7063 |
| tin | 3 | 12.6 | 11.8 | 6047 | 6456 |
| Gyc89Db | 1 | 14.9 | 15 | 5871 | 6654 |
| PPO3 | 1 | 16 | 28.8 | 6899 | 5729 |
| PPO3 | 2 | 1.15 | 1 | 6459 | 6321 |
| Opa1 | 1 | 23.2 | 15.7 | 4417 | 5991 |
| Opa1 | 2 | 7.61 | 1.18 | 1471 | 509 |
| Uhg4 + snoRNA:Psi28S-2949 | 1 | 0.63 | 22.1 | 6528 | 5241 |
| CG12912 | 1 | 0.76 | 1.53 | 6077 | 6474 |
| CG14106 | 1 | 0.96 | 2.04 | 6782 | 6558 |
| CG14563 | 1 | 1.6 | 5.38 | 6618 | 6892 |
| 825-Oak + CG32214 + CG32213 | 1 | 5.66 | 15.6 | 6294 | 6728 |
| Cyp6t3 | 1 | 7.75 | 8.8 | 6183 | 6032 |
| CG33465 | 1 | 0.82 | 2 | 6446 | 5702 |
| CG14207 | 1 | 10.6 | 18.6 | 6802 | 6732 |
| CG14207 | 2 | 5.2 | 1.87 | 4289 | 6535 |
| Acsx1L | 1 | 8.35 | 4.28 | 6176 | 3571 |
| Acsx1L | 2 | 21.4 | 25.4 | 1864 | 5519 |
| Fas3 | 1 | – | 24.3 | 530 | 5759 |
| Fas3 | 2 | 3.16 | 28.6 | 6294 | 5865 |
| Fas3 | 3 | 6.23 | – | 1059 | 390 |
| mxt | 1 | 1.28 | 1.47 | 6239 | 6131 |
| Tsp29Fb | 1 | 2.56 | 7.88 | 6371 | 6267 |
| Tsp29Fb | 2 | 5.6 | 2.87 | 6659 | 5920 |
| INPP5E | 1 | 2.42 | 10.1 | 6606 | 6538 |
| Cpr78Cb | 1 | 14.3 | 27.2 | 5717 | 4436 |
| Cpr78Cb | 2 | 7.8 | 8.11 | 6193 | 5933 |
| Tcs5 | 1 | 3.06 | 2.64 | 6565 | 6017 |
| ZnT63C | 1 | 0.42 | 0.75 | 6418 | 6359 |
| ZnT63C | 2 | 1.06 | 0.5 | 6013 | 6238 |
| ZnT63C | 3 | 10.5 | 6.02 | 3782 | 2591 |
| ZnT63C | 4 | 9.53 | 1.03 | 6306 | 6778 |
| ZnT63C | 5 | 2.55 | 2.21 | 6191 | 6366 |

3 entries already listed, ordered by “infection score, replicate 2”, low to high:
| gene knocked down | dsRNA no. | infection score, replicate 1 | infection score, replicate 2 | cell count, replicate 1 | cell count, replicate 2 |
| --- | --- | --- | --- | --- | --- |
| Vha100-3 | 1 | 0.7 | 0.5 | 6309 | 5770 |
| Cpr65Aw | 1 | 0.87 | 0.92 | 6063 | 5769 |
| CG17121 | 1 | 5.63 | 2.35 | 6234 | 6429 |
